Reference: patent publication US20220033460A1, “IDENTIFICATION AND USE OF T CELL EPITOPES IN DESIGNING DIAGNOSTIC AND THERAPEUTIC APPROACHES FOR COVID-19” (priority 2020, published 2022)

Tested on: CD8+ T cells
Type: cell-based, human
Settings: cells of the TCR clonotype specific for the epitope / HLA class I of the same line

B1: TCR_96: TCR to … / A*02:01 (protein)
TCR alpha: RKEVEQDPGPFNVPEGATVAFNCTYSNSASQSFFWYRQDCRKEPKLLMSVYSSGNEDGRFTAQLNRASQYISLLIRDSKLSDSATYLCVVNEEDKLIFGTGTRLQVFPNIQNPDPAVYQLRDSKSSDKSVCLFTDFDSQTNVSQSKDSDVYITDKTVLDMRSMDFKSNSAVAWSNKSDFACANAFNNSIIPEDTFFPSPESSCDVKLVEKSFETDTNLNFQNLSVIGFRILLLKVAGFNLLMTLRLWSS
TCR beta: DTGVSQNPRHKITKRGQNVTFRCDPISEHNRLYWYRQTLGQGPEFLTYFQNEAQLEKSRLLSDRFSAERPKGSFSTLEIQRTEQGDSAMYLCAGSTSLTGELFFGEGSRLTVLEDLKNVFPPKVAVFEPSEAEISHTQKATLVCLATGFYPDHVELSWWVNGKEVHSGVSTDPQPLKEQPALNDSRYCLSSRLRVSATFWQNPRNHFRCQVQFYGLSENDEWTQDRAKPVTQIVSAEAWGRADCGFTSESYQQGVLSATILYEILLGKATLYAVLVSALVLMAMVKRKDSRG
- No. of Cells: 2

B2: TCR_92: TCR to … / B*07:02 (protein)
TCR alpha: ILNVEQSPQSLHVQEGDSTNFTCSFPSSNFYALHWYRWETAKSPEALFVMTLNGDEKKKGRISATLNTKEGYSYLYIKGSQPEDSATYLCALDYGQNFVFGPGTRLSVLPYIQNPDPAVYQLRDSKSSDKSVCLFTDFDSQTNVSQSKDSDVYITDKTVLDMRSMDFKSNSAVAWSNKSDFACANAFNNSIIPEDTFFPSPESSCDVKLVEKSFETDTNLNFQNLSVIGFRILLLKVAGFNLLMTLRLWSS
TCR beta: MSNQVLCCVVLCFLGANTVDGGITQSPKYLFRKEGQNVTLSCEQNLNHDAMYWYRQDPGQGLRLIYYSQIVNDFQKGDIAEGYSVSREKKESFPLTVTSAQKNPTAFYLCASSIGSREAFFGQGTRLTVVEDLNKVFPPEVAVFEPSEAEISHTQKATLVCLATGFFPDHVELSWWVNGKEVHSGVSTDPQPLKEQPALNDSRYCLSSRLRVSATFWQNPRNHFRCQVQFYGLSENDEWTQDRAKPVTQIVSAEAWGRADCGFTSVSYQQGVLSATILYEILLGKATLYAVLVSALVLMAMVKRKDF
- No. of Cells: 2

B3: TCR_91: TCR to … / B*07:02 (protein)
TCR alpha: DQQVKQNSPSLSVQEGRISILNCDYTNSMFDYFLWYKKYPAEGPTFLISISSIKDKNEDGRFTVFLNKSAKHLSLHIVPSQPGDSAVYFCAARYSGNTPLVFGKGTRLSVIANIQNPDPAVYQLRDSKSSDKSVCLFTDFDSQTNVSQSKDSDVYITDKTVLDMRSMDFKSNSAVAWSNKSDFACANAFNNSIIPEDTFFPSPESSCDVKLVEKSFETDTNLNFQNLSVIGFRILLLKVAGFNLLMTLRLWSS
TCR beta: DAGVIQSPRHEVTEMGQEVTLRCKPISGHDYLFWYRQTMMRGLELLIYFNNNVPIDDSGMPEDRFSAKMPNASFSTLKIQPSEPRDSAVYFCASSTGSNTGELFFGEGSRLTVLEDLKNVFPPKVAVFEPSEAEISHTQKATLVCLATGFYPDHVELSWWVNGKEVHSGVSTDPQPLKEQPALNDSRYCLSSRLRVSATFWQNPRNHFRCQVQFYGLSENDEWTQDRAKPVTQIVSAEAWGRADCGFTSESYQQGVLSATILYEILLGKATLYAVLVSALVLMAMVKRKDSRG
- No. of Cells: 2

B4: TCR_95: TCR to … / A*02:01 (protein)
TCR alpha: RKEVEQDPGPFNVPEGATVAFNCTYSNSASQSFFWYRQDCRKEPKLLMSVYSSGNEDGRFTAQLNRASQYISLLIRDSKLSDSATYLCVVNNAGNMLTFGGGTRLMVKPHIQNPDPAVYQLRDSKSSDKSVCLFTDFDSQTNVSQSKDSDVYITDKTVLDMRSMDFKSNSAVAWSNKSDFACANAFNNSIIPEDTFFPSPESSCDVKLVEKSFETDTNLNFQNLSVIGFRILLLKVAGFNLLMTLRLWSS
TCR beta: MGPGLLHWMALCLLGTGHGDAMVIQNPRYQVTQFGKPVTLSCSQTLNHNVMYWYQQKSSQAPKLLFHYYDKDFNNEADTPDNFQSRRPNTSFCFLDIRSPGLGDAAMYLCATQNLNTGELFFGEGSRLTVLEDLKNVFPPKVAVFEPSEAEISHTQKATLVCLATGFYPDHVELSWWVNGKEVHSGVSTDPQPLKEQPALNDSRYCLSSRLRVSATFWQNPRNHFRCQVQFYGLSENDEWTQDRAKPVTQIVSAEAWGRADCGFTSESYQQGVLSATILYEILLGKATLYAVLVSALVLMAMVKRKDSRG
- No. of Cells: 2

B5: TCR_98: TCR to … / A*02:01 (protein)
TCR alpha: QKEVEQDPGPLSVPEGAIVSLNCTYSNSAFQYFMWYRQYSRKGPELLMYTYSSGNKEDGRFTAQVDKSSKYISLFIRDSQPSDSATYLCAMSANAGNMLTFGGGTRLMVKPHIQNPDPAVYQLRDSKSSDKSVCLFTDFDSQTNVSQSKDSDVYITDKTVLDMRSMDFKSNSAVAWSNKSDFACANAFNNSIIPEDTFFPSPESSCDVKLVEKSFETDTNLNFQNLSVIGFRILLLKVAGFNLLMTLRLWSS
TCR beta: EAQVTQNPRYLITVTGKKLTVTCSQNMNHEYMSWYRQDPGLGLRQIYYSMNVEVTDKGDVPEGYKVSRKEKRNFPLILESPSPNQTSLYFCASRPLTGGPLAKNIQYFGAGTRLSVLEDLKNVFPPKVAVFEPSEAEISHTQKATLVCLATGFYPDHVELSWWVNGKEVHSGVSTDPQPLKEQPALNDSRYCLSSRLRVSATFWQNPRNHFRCQVQFYGLSENDEWTQDRAKPVTQIVSAEAWGRADCGFTSESYQQGVLSATILYEILLGKATLYAVLVSALVLMAMVKRKDSRG
- No. of Cells: 2

B6: TCR_94: TCR to … / A*02:01 (protein)
TCR alpha: AQKVTQAQTEISVVEKEDVTLDCVYETRDTTYYLFWYKQPPSGELVFLIRRNSFDEQNEISGRYSWNFQKSTSSFNFTITASQVVDSAVYFCALSLIIYNQGGKLIFGQGTELSVKPNIQNPDPAVYQLRDSKSSDKSVCLFTDFDSQTNVSQSKDSDVYITDKTVLDMRSMDFKSNSAVAWSNKSDFACANAFNNSIIPEDTFFPSPESSCDVKLVEKSFETDTNLNFQNLSVIGFRILLLKVAGFNLLMTLRLWSS
TCR beta: NAGVTQTPKFRVLKTGQSMTLLCAQDMNHEYMYWYRQDPGMGLRLIHYSVGEGTTAKGEVPDGYNVSRLKKQNFLLGLESAAPSQTSVYFCASSPTSGSRETQYFGPGTRLLVLEDLKNVFPPKVAVFEPSEAEISHTQKATLVCLATGFYPDHVELSWWVNGKEVHSGVSTDPQPLKEQPALNDSRYCLSSRLRVSATFWQNPRNHFRCQVQFYGLSENDEWTQDRAKPVTQIVSAEAWGRADCGFTSESYQQGVLSATILYEILLGKATLYAVLVSALVLMAMVKRKDSRG
- No. of Cells: 2

B7: TCR_89: TCR to … / B*07:02 (protein)
TCR alpha: GENVEQHPSTLSVQEGDSAVIKCTYSDSASNYFPWYKQELGKGPQLIIDIRSNVGEKKDQRIAVTLNKTAKHFSLHITETQPEDSAVYFCAAPTNNNDMRFGAGTRLTVKPNIQNPDPAVYQLRDSKSSDKSVCLFTDFDSQTNVSQSKDSDVYITDKTVLDMRSMDFKSNSAVAWSNKSDFACANAFNNSIIPEDTFFPSPESSCDVKLVEKSFETDTNLNFQNLSVIGFRILLLKVAGFNLLMTLRLWSS
TCR beta: MSLGLLCCGVFSLLWAGPVNAGVTQTPKFRVLKTGQSMTLLCAQDMNHEYMYWYRQDPGMGLRLIHYSVGEGTTAKGEVPDGYNVSRLKKQNFLLGLESAAPSQTSVYFCASSYVTGASYEQYFGPGTRLTVTEDLKNVFPPKVAVFEPSEAEISHTQKATLVCLATGFYPDHVELSWWVNGKEVHSGVSTDPQPLKEQPALNDSRYCLSSRLRVSATFWQNPRNHFRCQVQFYGLSENDEWTQDRAKPVTQIVSAEAWGRADCGFTSESYQQGVLSATILYEILLGKATLYAVLVSALVLMAMVKRKDSRG
- No. of Cells: 2

B8: TCR_97: TCR to … / B*07:02 (protein)
TCR alpha: AQRVTQPEKLLSVFKGAPVELKCNYSYSGSPELFWYVQYSRQRLQLLLRHISRESIKGFTADLNKGETSFHLKKPFAQEEDSAMYYCALSYSDGQKLLFARGTMLKVDLNIQNPDPAVYQLRDSKSSDKSVCLFTDFDSQTNVSQSKDSDVYITDKTVLDMRSMDFKSNSAVAWSNKSDFACANAFNNSIIPEDTFFPSPESSCDVKLVEKSFETDTNLNFQNLSVIGFRILLLKVAGFNLLMTLRLWSS
TCR beta: KAGVTQTPRYLIKTRGQQVTLSCSPISGHRSVSWYQQTPGQGLQFLFEYFSETQRNKGNFPGRFSGRQFSNSRSEMNVSTLELGDSALYLCASSLAGGWGTEAFFGQGTRLTVVEDLNKVFPPEVAVFEPSEAEISHTQKATLVCLATGFFPDHVELSWWVNGKEVHSGVSTDPQPLKEQPALNDSRYCLSSRLRVSATFWQNPRNHFRCQVQFYGLSENDEWTQDRAKPVTQIVSAEAWGRADCGFTSVSYQQGVLSATILYEILLGKATLYAVLVSALVLMAMVKRKDF
- No. of Cells: 2

B9: TCR_90: TCR to … / A*02:01 (protein)
TCR alpha: RKEVEQDPGPFNVPEGATVAFNCTYSNSASQSFFWYRQDCRKEPKLLMSVYSSGNEDGRFTAQLNRASQYISLLIRDSKLSDSATYLCVVNDPAGSYQLTFGKGTKLSVIPNIQNPDPAVYQLRDSKSSDKSVCLFTDFDSQTNVSQSKDSDVYITDKTVLDMRSMDFKSNSAVAWSNKSDFACANAFNNSIIPEDTFFPSPESSCDVKLVEKSFETDTNLNFQNLSVIGFRILLLKVAGFNLLMTLRLWSS
TCR beta: DTAVSQTPKYLVTQMGNDKSIKCEQNLGHDTMYWYKQDSKKFLKIMFSYNNKELIINETVPNRFSPKSPDKAHLNLHINSLELGDSAVYFCASSPPSGGNTGELFFGEGSRLTVLEDLKNVFPPKVAVFEPSEAEISHTQKATLVCLATGFYPDHVELSWWVNGKEVHSGVSTDPQPLKEQPALNDSRYCLSSRLRVSATFWQNPRNHFRCQVQFYGLSENDEWTQDRAKPVTQIVSAEAWGRADCGFTSESYQQGVLSATILYEILLGKATLYAVLVSALVLMAMVKRKDSRG
- No. of Cells: 2

B10: TCR_88: TCR to … / A*02:01 (protein)
TCR alpha: AQKITQTQPGMFVQEKEAVTLDCTYDTSDPSYGLFWYKQPSSGEMIFLIYQGSYDQQNATEGRYSLNFQKARKSANLVISASQLGDSAMYFCAMRRPGANNLFFGTGTRLTVIPYIQNPDPAVYQLRDSKSSDKSVCLFTDFDSQTNVSQSKDSDVYITDKTVLDMRSMDFKSNSAVAWSNKSDFACANAFNNSIIPEDTFFPSPESSCDVKLVEKSFETDTNLNFQNLSVIGFRILLLKVAGFNLLMTLRLWSS
TCR beta: ETGVTQTPRHLVMGMTNKKSLKCEQHLGHNAMYWYKQSAKKPLELMFVYSLEERVENNSVPSRFSPECPNSSHLFLHLHTLQPEDSALYLCASSAQEGRIEMNTEAFFGQGTRLTVVEDLNKVFPPEVAVFEPSEAEISHTQKATLVCLATGFFPDHVELSWWVNGKEVHSGVSTDPQPLKEQPALNDSRYCLSSRLRVSATFWQNPRNHFRCQVQFYGLSENDEWTQDRAKPVTQIVSAEAWGRADCGFTSVSYQQGVLSATILYEILLGKATLYAVLVSALVLMAMVKRKDF
- No. of Cells: 2
